Source: paper PMC8126241, “Active Components from Cassia abbreviata Prevent HIV-1 Entry by Distinct Mechanisms of Action” (International Journal of Molecular Sciences, 2021)

Test system: pseudotyped viruses pNL4.3ΔEnvLuc-HXB2/pNL4.3ΔEnvLuc-BAL
Format: cell-based, HIV-1
Settings: EC95 level, CompuSyn; CI < 0.9 means synergy

Oc1cc(O)cc(/C=C/c2ccc(O)c(O)c2)c1 [piceatannol, trans-3,3′,4,5′-tetrahydroxystilbene]
< 0.9: Combination index (CI) with AMD100 | Combination index (CI) with Maraviroc | Combination index (CI) with T20
